Measured values from several laboratories, pooled; numbers as filed in NIAID ChemDB.

All rows: enzyme or target tests; organism: HIV-1; target: Protease; measure: IC50

Neighbouring rows are from separate reports. An empty or dashed field is not shown. ICn is the concentration giving n% inhibition.

smiles,read by,conditions,value
O=C(N[C@@H](Cc1ccccc1)[C@H](Cc1ccccc1)n1cc(CN2CCC(O)(c3cccc(C(F)(F)F)c3)CC2)nn1)OC1CCCC1,fluorescence,,>5 µM
Nc1ccc(N)c2c1C(=O)c1c(N)ccc(N)c1C2=O,fluorescence,,16 µM
CN(Cc1ccccc1)C(=O)N[C@@H](Cc1ccccc1)[C@H](O)CNC[C@@H](O)[C@H](Cc1ccccc1)NC(=O)OC(C)(C)C,HPLC,pH 5.5,>10 µM
CC(C)[C@H](NC(=O)c1ccncc1)C(=O)N[C@@H](Cc1ccccc1)C(O)[C@H](Cc1ccccc1)NC(=O)[C@@H](NC(=O)c1ccncc1)C(C)C,fluorescence,,<0.1 µM
O=C1c2ccc(O)cc2C(=O)c2ccc(O)cc21,fluorescence,,18 µM
Cc1ccc(Cl)cc1N1CCN(Cc2cn([C@@H](Cc3ccccc3)[C@H](Cc3ccccc3)NC(=O)O[C@H]3CCOC3)nn2)CC1,fluorescence,,<5 µM
NC(=O)C[C@H](NC(=O)CCCCCCCCCCCCCCC(=O)N[C@@H](Cc1ccc(F)c(F)c1)C(=O)N[C@@H](Cc1ccccc1)C(N)=O)C(=O)N[C@@H](Cc1ccccc1)C(=O)O,HPLC,,1.13 µM
O=C1c2ccccc2C(=O)c2c1cc(S(=O)(=O)O)c(O)c2O,fluorescence,,8 µM
CC(C)(C)OC(=O)N[C@@H](Cc1ccccc1)[C@H](O)CNC[C@@H](O)[C@H](Cc1ccccc1)NC(=O)C(N)C(F)(F)F,HPLC,pH 5.5,<10 µM
Cc1ccc(Cl)cc1N1CCN(Cc2cn([C@@H](Cc3ccccc3)[C@H](Cc3ccccc3)NC(=O)NC3CCCCC3)nn2)CC1,fluorescence,,>5 µM
O=C1C=CC(=O)c2c(O)cccc21,fluorescence,,265 µM
CC(C)(C)OC(=O)N[C@@H](Cc1ccccc1)[C@H](O)CNC[C@@H](O)[C@H](Cc1ccccc1)NC(=O)C1[C@H](O)CCC1(C)C,HPLC,pH 5.5,<10 µM
CC(C)[C@H](NC(=O)OCc1cccnc1)C(=O)N[C@@H](Cc1ccccc1)[C@@H](O)[C@H](O)[C@H](Cc1ccccc1)NC(=O)[C@@H](NC(=O)OCc1cccnc1)C(C)C,fluorescence,,<0.001 µM
Cc1ccc(Cl)cc1N1CCN(Cc2cn([C@@H](Cc3ccccc3)[C@H](Cc3ccccc3)NC(=O)NC(C)C)nn2)CC1,fluorescence,,>5 µM
CCC(C)[C@H](NC(=O)CCCCCCCCCCCCCCC(=O)N[C@@H](CC(N)=O)C(=O)N[C@H](C(=O)O)C1CCCCC1)C(=O)N[C@@H](Cc1ccccc1)C(N)=O,HPLC,,0.91 µM
CC(=O)N[C@@H](Cc1ccccc1)C(O)[C@H](Cc1ccccc1)NC(C)=O,fluorescence,,<50 µM
CCC(C)[C@H](NC(=O)CCCCCCCCCCCCCCC(=O)Nc1ccccc1C(=O)N[C@@H](Cc1ccccc1)C(=O)O)C(=O)N[C@@H](Cc1ccccc1)C(N)=O,HPLC,,0.552 µM
CC(C)CC(NC(=O)[C@@H](NC(=O)OCc1ccccc1)C(C)C)C(O)C(F)(F)C(NC(=O)[C@@H](NC(=O)OCc1ccccc1)C(C)C)C(C)C,fluorescence,,>0.005 µM
CC(C)CC[C@H](NC(=O)CCCCCCCCCCCCCCC(=O)N[C@@H](CC(N)=O)C(=O)N[C@@H](Cc1ccccc1)C(=O)O)C(=O)N[C@@H](Cc1ccccc1)C(N)=O,HPLC,,0.946 µM
Nc1ccc2c(c1N)C(=O)c1ccccc1C2=O,fluorescence,,100 µM
CC(C)(C)CC(=O)N[C@@H](Cc1ccccc1)[C@H](O)CNC[C@@H](O)[C@H](Cc1ccccc1)NC(=O)OC(C)(C)C,HPLC,pH 5.5,<10 µM

Repeating the final 2 entries:

smiles,read by,conditions,value
Nc1ccc2c(c1N)C(=O)c1ccccc1C2=O,fluorescence,,100 µM
CC(C)(C)CC(=O)N[C@@H](Cc1ccccc1)[C@H](O)CNC[C@@H](O)[C@H](Cc1ccccc1)NC(=O)OC(C)(C)C,HPLC,pH 5.5,<10 µM